Results of unrelated studies side by side (data: NIAID ChemDB).

All rows: whole-cell or culture tests; organism: Human herpesvirus 6

Percent inhibition refers to the dose given; in toxicity tests it is the harm to the cells. Conditions beyond the fields shown may differ between rows. ECn: concentration that inhibits the pathogen or its effect by n%. Blank or dashed fields: not listed here.

{"compound": "Nc1nc(N)c2ncn(C[C@@H](CO)OCP(=O)(O)O)c2n1", "endpoint": "EC50", "strain or isolate": "GS", "method": "antigen", "cell line": "HSB-2", "result": "12.1 µg/mL"}
{"compound": "Nc1nc(N)c2ncn(C[C@@H](CO)OCP(=O)(O)O)c2n1", "endpoint": "EC50", "strain or isolate": "U1102 (TYPE 6A)", "method": "cytopathic effect", "cell line": "HSB-2", "result": "9 µM"}
{"compound": "COC(=O)[C@H](C)NP(=O)(OC[C@H]1C/C1=C\\n1cnc2c(=O)[nH]c(N)nc21)Oc1ccccc1", "endpoint": "EC50", "strain or isolate": "GS", "method": "ELISA", "cell line": "HSB-2", "result": ">100 µM"}
{"compound": "Nc1nc2c(ncn2C[C@]2(CO)C[C@H]2CO)c(=O)[nH]1", "endpoint": "EC50", "method": "cytopathic effect", "cell line": "Human cord blood lymphocytes", "result": "0.19 µM"}
{"compound": "O=c1[nH]c(=O)n([C@H]2C[C@H](O)[C@@H](CO)O2)cc1I", "endpoint": "EC50", "strain or isolate": "U1102 (TYPE 6A)", "method": "cytopathic effect", "cell line": "HSB-2", "result": ">288 µM"}
{"compound": "Nc1ncnc2c1ncn2C[C@@H](CO)OCP(=O)(O)O", "endpoint": "EC50", "strain or isolate": "GS", "method": "cytopathic effect", "cell line": "HSB-2", "result": "10 µM"}
{"compound": "COC(=O)[C@H](C)NP(=O)(OC[C@H]1C/C1=C\\n1cnc2c(N)nc(N)nc21)Oc1ccccc1", "endpoint": "EC50", "strain or isolate": "GS", "method": "ELISA", "cell line": "HSB-2", "result": "55 µM"}
{"compound": "Nc1nc2c(ncn2CCOCP(=O)(O)O)c(=O)[nH]1", "endpoint": "EC50", "strain or isolate": "U1102 (TYPE 6A)", "method": "cytopathic effect", "cell line": "HSB-2", "result": "1.4 µM"}
{"compound": "Nc1ccn(C[C@@H](CO)OCP(=O)(O)O)c(=O)n1", "endpoint": "EC50", "cell line": "Human T-lymphoblasts", "result": "2.9 µM"}
{"compound": "O=c1[nH]c(=O)n([C@@H]2O[C@H](CO)[C@@H](O)[C@@H]2O)cc1/C=C/Br", "endpoint": "EC50", "strain or isolate": "U1102 (TYPE 6A)", "method": "cytopathic effect", "cell line": "HSB-2", "result": ">232 µM"}
{"compound": "Nc1nc2c(ncn2CCC(CO)CO)c(=O)[nH]1", "endpoint": "inhibition", "strain or isolate": "729", "setting": "6 d", "method": "antigen", "cell line": "HUMAN CORD BLOOD CELL", "tested at": "10 µM", "result": "0%"}
{"compound": "Nc1nc2c(ncn2C[C@H]2COP(=O)(O)CO2)c(=O)[nH]1", "endpoint": "EC50", "strain or isolate": "GS", "method": "cytopathic effect", "cell line": "HSB-2", "result": "6.9 µM"}
{"compound": "O=c1[nH]c(=O)n([C@H]2C[C@H](O)[C@@H](CO)O2)cc1/C=C/Br", "endpoint": "EC50", "strain or isolate": "U1102 (TYPE 6A)", "method": "cytopathic effect", "cell line": "HSB-2", "result": ">3.5 µM"}
{"compound": "Nc1ncnc2c1ncn2C[C@H]1COP(=O)(O)CO1", "endpoint": "EC50", "strain or isolate": "GS", "method": "cytopathic effect", "cell line": "HSB-2", "result": "42 µM"}
{"compound": "Nc1nc(N)c2ncn(CCOCP(=O)(O)O)c2n1", "endpoint": "EC50", "strain or isolate": "GS", "method": "antigen", "cell line": "HSB-2", "result": "2.8 µg/mL"}

Repeating the first 2 entries:

| compound | endpoint | strain or isolate | setting | method | cell line | tested at | result |
|---|---|---|---|---|---|---|---|
| Nc1nc(N)c2ncn(C[C@@H](CO)OCP(=O)(O)O)c2n1 | EC50 | GS | - | antigen | HSB-2 | - | 12.1 µg/mL |
| Nc1nc(N)c2ncn(C[C@@H](CO)OCP(=O)(O)O)c2n1 | EC50 | U1102 (TYPE 6A) | - | cytopathic effect | HSB-2 | - | 9 µM |